Percent effect of library compounds

Source: ChEMBL document CHEMBL3988442, “University of Dundee, Small-Polar-MMV Screening Library” (2021).

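Whole-cell growth test on Mycobacterium tuberculosis, read after 3 days in glucose-containing 7H9 medium; the read-out is not stated. Concentration: 500 µM. Direction is inferred from retests: higher values go with more growth inhibition. About 18,000 compounds were tested under these conditions; 7.9% (about 1,400) showed 50% or more at least once.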

The filed quantity is “Percent Effect” (%). The record does not define 0% and 100%; most values in the screen are far below 50% and negative numbers occur (in some assays of this library far below -100). The entries come from a sample that favours strong results.

| # | Compound | Percent Effect |
|---|---|---|
| 1 | `N#Cc1cnn(-c2ccccc2)n1` | -3.929% |
| 2 | `O=C(Nc1ncccc1O)c1sccc1OC(F)F` | -1.475% |
| 3 | `COCC(C)NC(=O)Cc1csc(-c2ccccn2)n1` (centres undefined) | 13.14% |
| 4 | `Nc1nccnc1C(=O)NCCCN1CCCC1=O` | 15.15% |
| 5 | `NCC(CO)Cc1ccc(F)c(Br)c1` (centres undefined) | 71.79% |
| 6 | `O=S(=O)(NC1CC1)c1cccs1` | 25.05% |
| 7 | `Cc1cccc(OCC(=O)NCC2CCNCC2)c1` | 24.61% |
| 8 | `CCNC(=O)NC(c1ccc2c(c1)OCCO2)C(C)C` (centres undefined) | 59.23% |
| 9 | `CCNc1nnc(SCc2ccnn2C)s1` | 25.13% |
| 10 | `OCCNC1CCCCC1` | -2.784% |
| 11 | `Cc1ccc(C(C)NC(=O)c2cnccn2)o1` (centres undefined) | 4.074% |
| 12 | `NCCC(=O)N1CCC2(CC1)NCCc1nc[nH]c12` | -5.259% |
| 13 | `COCC1(S(=O)(=O)NCc2ccnc(OC)c2)CC1` | 18.33% |
| 14 | `CN(C)C(=O)CNc1ccc(OC(C)(C)C)cc1` | -4.374% |
| 15 | `CCOC(=O)N1CCC(N)C1` (centres undefined) | -1.818% |
| 16 | `O=C(CN1CCOCC1)NCCc1noc(C2CC2)n1` | -3.835% |
| 17 | `CC(C)NC(=O)CNCc1ccccc1OC(F)F` | 23.48% |
| 18 | `CNC(=O)CNC(=O)c1cc2ccccc2cc1OC` | 58.52% |
| 19 | `CC(Sc1nnc[nH]1)C(=O)Nc1ccc(C#N)cc1` (centres undefined) | 50.35% |
| 20 | `CCCNCCNC(=O)C(C)c1ccc(OC)cc1` (centres undefined) | 17.36% |
| 21 | `CCc1ccc(CN2CCN3CCN(C)CC3C2)o1` (centres undefined) | 6.02% |
| 22 | `CNS(=O)(=O)c1cccc(CN)c1` | 14.89% |
| 23 | `OCC(O)CNc1ncc(-c2ccccc2)s1` (centres undefined) | 31.44% |
| 24 | `COCCN(C)CCNC(=O)c1cccc(I)c1` | 36.4% |
| 25 | `c1cncc(CNCc2ccc3c(c2)OCCCO3)c1` | 29.06% |
| 26 | `OCC1CSc2ccccc2O1` (centres undefined) | 19.05% |
| 27 | `COCCN1CCCC(Nc2ccc(Cl)cn2)C1` (centres undefined) | 70.67% |
| 28 | `NCC(c1ccco1)N1CCCCC1` (centres undefined) | 4.159% |
| 29 | `CC(C)N1CC(C(=O)NCc2c[nH]nn2)CC1=O` (centres undefined) | -5.682% |
| 30 | `CC(C)c1ccccc1OCC(O)CN(C)CCO` (centres undefined) | 79.84% |
| 31 | `CCn1c(C(=O)N2CCC(O)CC2)cc2ccccc21` | 31.54% |
| 32 | `CC(C#N)N1CCOCC1` (centres undefined) | -1.537% |
| 33 | `CN(C(=O)COc1cccc(C#N)c1)C1CC1` | -6.297% |
| 34 | `Cn1cnc(S(=O)(=O)N(CC(N)=O)C2CCCC2)c1Cl` | -12.12% |
| 35 | `CN1CC(NC(=O)NCCc2cccs2)CC1=O` (centres undefined) | -6.486% |
| 36 | `NCC1CCN(CCc2ccccc2)C1` (centres undefined) | 62.23% |
| 37 | `COCCCN1CCN(c2ccccc2OC)CC1` | 55.53% |
| 38 | `O=C(c1nc(N2CCCC2)ncc1Cl)N1CCSCC1` | 31.1% |
| 39 | `Cc1[nH]c2ccc(C(N)=O)cc2c1C` | 77.24% |
| 40 | `CCOC(=O)c1cccnc1-n1cc(Br)cn1` | 49.87% |
| 41 | `CC(C)(C)N1CCCN(C(=O)c2cc(Cl)c[nH]2)CC1` | 13.21% |
| 42 | `CCC(NC(=O)c1cnc(SC)nc1)c1ccnn1C` (centres undefined) | 3.126% |
| 43 | `CN(C(=O)c1ccc(Cl)c(F)c1)C1(C(N)=O)CCCC1` | 19.87% |
| 44 | `CN1CN(C(=O)c2ccc(Br)cc2Cl)CC1=O` | 11.48% |
| 45 | `CC1(CCCO)CCCN1` (centres undefined) | 3.251% |
| 46 | `COc1cccc(SCC(=O)N2CCOC(C)C2)c1` (centres undefined) | 53.18% |
| 47 | `CCNC(=O)N1CCN(Cc2ccc(OC)nc2)CC1` | 5.386% |
| 48 | `COc1ccc(CNC(=O)NCC2CC2)cn1` | 39.82% |
| 49 | `Cc1nnnn1CC(=O)NCc1ccco1` | 0.5563% |
| 50 | `Cn1cc(CNC(=O)c2ccco2)cn1` | 15.5% |
| 51 | `CNc1cc(C(=O)NCC(OC)c2cccs2)ccn1` (centres undefined) | 50.74% |
| 52 | `CN(CC(N)=O)S(=O)(=O)c1ccc2c(c1)OCCO2` | 3.874% |
| 53 | `C=C(Br)Cn1c(CO)nc2ccccc21` | 35.34% |
| 54 | `NCc1cccc(C(=O)NC2CC2)c1` | 7.895% |
| 55 | `O=S(=O)(NCCN1CCNCC1)N1CCOCC1` | 2.881% |
| 56 | `CCO[C@H]1COC[C@@H]1NC(=O)c1occc1C` | 0.2558% |
| 57 | `CN(CC(N)=O)C(=O)C(C)(C)c1ccc(Cl)cc1` | 14.24% |
| 58 | `COc1cccc(C2(F)CCNCC2)c1` | 36.95% |
| 59 | `CCc1nnsc1C(=O)N1CCc2sccc2C1` | 53.36% |
| 60 | `O=C1CN(C(=O)c2ccc(Br)s2)c2ccccc2N1` | 15.85% |
| 61 | `COCCN1CCC(CNC(=O)c2cn[nH]c2)C1` (centres undefined) | -4.629% |
| 62 | `Cc1noc(C)c1CC(=O)N1CCN(S(C)(=O)=O)CC1` | -0.1094% |
| 63 | `NCCc1cccc2ncccc12` | 9.689% |
| 64 | `CC(C)NS(=O)(=O)c1cc(CN)ccc1F` | 61.3% |

Repeated from the top, 4 entries:

Compound	Percent Effect
N#Cc1cnn(-c2ccccc2)n1	-3.929%
O=C(Nc1ncccc1O)c1sccc1OC(F)F	-1.475%
COCC(C)NC(=O)Cc1csc(-c2ccccn2)n1 (centres undefined)	13.14%
Nc1nccnc1C(=O)NCCCN1CCCC1=O	15.15%